# This is a selection; strong and weak results do not stand in their true shares. Activity calls are given as the source filed them. No rule for the calls is given here.
# Assays:
# [1] = Ebola virus entry assay, ratio channel
# [2] = Ebola virus entry assay, reporter ratio channel; Channel type: primary
structure (smiles),measurement,setting,value
OCCN1CCN(CC/C=C2/c3ccccc3Sc3ccc(C(F)(F)F)cc32)CC1,AC50,[1],active: 3.16 µM
same,AC50,[2],active: 3.16 µM

# From PubChem BioAssay (NCATS)
